Test results as given in patent publication US20230174946A1, “ORGAN INFECTION MODELS” (priority 2020, published 2023).
Entries after “also recorded” stand apart in the source; their conditions may differ. Where two headings read alike, the source gives them in different places.

How the values were obtained:
[1] = test system: SARS-CoV-2; type: cell-based; conditions: 10 µM Hydroxychloroquine or Remdesivir, 100 units/ml IFNB1
[2] = test system: SARS-CoV-2; conditions: cited from earlier work
[3] = test system: SARS-CoV-2; type: cell-based; conditions: 10 µM Hydroxychloroquine or Remdesivir, 100 units/ml IFNB1; remark: listed apart in the source
[4] = test system: SARS-CoV-2; type: cell-based; conditions: pre-treatment, 10 µM Hydroxychloroquine or Remdesivir, 100 units/ml IFNB1

B1: IFNB1: known anti-viral cytokine; Type 1 interferon; stock provided by Dr. Jay Kolls (protein, UniProt P01574 22-187, looked up)
Interferon beta: MSYNLLGFLQRSSNFQCQKLLWQLNGRLEYCLKDRMNFDIPEEIKQLQQFQKEDAALTIYEMLQNIFAIFRQDSSSTGWNETIVENLLANVYHQINHLKTVLEEKLEKEDFTRGKLMSSLHLKRYYGRILHYLKAKEYSHCAWTIVRVEILRNFYFINRLTGYLRN
reduction in viral N gene RNA/expression compared to untreated infected organoids ([1]; human 3D alveolar organoids, added 3 hours prior to infection and maintained): 3.2 log | effect on viral replication in alveolar organoid cultures (in words) ([1]; pre-treatment): significantly reduced viral replication | effect on SARS-CoV-2 infection in Vero Cells [2]: reduce SARS-CoV-2 infection | reduction in viral N gene RNA/expression compared to untreated infected AT2 cultures ([3]; human AT2 cultures, 3 hours prior to infection and maintained): 3.2 log | effect on viral infection/replication in AT2 cultures (in words) ([3]; pre-treatment): significant suppression viral infection; also recorded: significantly reduced viral replication | effect on viral N gene RNA / viral replication in proximal ALI cultures (in words) [4]: did not show a significant effect | effect on viral N gene RNA / viral replication in proximal ALI cultures (in words) ([4]; listed as IFNB): did not have an effect on viral replication
